Measurements reported in PubChem BioAssay AID504761 (Drosophila RNAi Screening Center, 2011)
Screen: 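Fly genes whose silencing reduces dengue virus type 2 infection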 (primary screen). Cells: D.Mel-2 cells from Drosophila. Reagents: long dsRNA against Drosophila genes. Challenge: infection with dengue virus type 2; dose and infection time not stated. Read-out: 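Per well on two replicate plates, imaging gave the percent of cells positive for viral envelope protein, ranked by infection, and a nuclear count of cells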. Reading the numbers: infection score: higher = more virus-infected cells. Hit rule: 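Low infection ranks in the two replicates (chance level up to 0.065) followed by a retest with a 1.5-fold or larger significant decrease, p below 0.05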. Meaning of the calls: active = confirmed: knock-down lowers infection; inactive = not picked or not confirmed.
The deposit covers about 22,000 reagents; this is a random part of those with a known target gene and a result. In the full data, 116 (0.52%) got an active call. 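Calls depend on retest data that are not deposited; infection was ranked per plate without normalising between plates; the unit of the infection score is not given.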 Names joined by + are all predicted targets of the reagent. Not all columns of the deposit are shown. Not given: the amount of reagent, the time to read-out.

mex1 [DRSC11368]
- infection score, replicate 1: 2.89
- activity call: inactive

CG5023 [DRSC15697]
- infection score, replicate 1: 9.8
- activity call: inactive

CG7029 [DRSC16177]
- infection score, replicate 1: 2.18
- activity call: inactive

CG7029 [DRSC23898]
- infection score, replicate 1: 5.31
- activity call: inactive

Send1 [DRSC00482]
- infection score, replicate 1: 4.89
- activity call: inactive

Send1 [DRSC27719]
- infection score, replicate 1: 21.6
- activity call: inactive

Msp300 [DRSC00856]
- infection score, replicate 1: 1.21
- activity call: inactive

Msp300 [DRSC00857]
- infection score, replicate 1: 2.75
- activity call: inactive

Msp300 [DRSC00858]
- infection score, replicate 1: 5.76
- activity call: inactive

Msp300 [DRSC02360]
- infection score, replicate 1: 8.7
- activity call: inactive

Msp300 [DRSC03369]
- infection score, replicate 1: 4.88
- activity call: inactive

Msp300 [DRSC03370]
- infection score, replicate 1: 8.42
- activity call: inactive

Lrch [DRSC02996]
- infection score, replicate 1: 13
- activity call: inactive

Lrch [DRSC29145]
- infection score, replicate 1: 9.27
- activity call: inactive

Ordered by “infection score, replicate 1” (high to low): 2 of the entries above.
Lrch [DRSC02996]
- infection score, replicate 1: 13
- activity call: inactive

Lrch [DRSC29145]
- infection score, replicate 1: 9.27
- activity call: inactive

The results go on.
CG5412 [DRSC15796]
- infection score, replicate 1: 5.69
- activity call: inactive

PK2-R1 [DRSC16447]
- infection score, replicate 1: 6.05
- activity call: inactive

PK2-R1 [DRSC24363]
- infection score, replicate 1: 30.3
- activity call: inactive

CG8620 [DRSC11020]
- infection score, replicate 1: 4.65
- activity call: inactive

CG8620 [DRSC25632]
- infection score, replicate 1: 6.68
- activity call: inactive

CG17261 [DRSC00498]
- infection score, replicate 1: 4.26
- activity call: inactive

Unc-115b + p24-2 + Unc-115a [DRSC16502]
- infection score, replicate 1: 1.42
- activity call: inactive
